Assay results: patent US8158575B2, “Agent for the prevention and treatment of sexually transmitted diseases-I” (priority 2001, dated 2012)

What was measured:
Format in all cases: cell-based
[1] = system: SK1 clinical isolate of HIV-1; experiment: CD4-independent HIV transmission inhibition assay (H9-SK1 to ME180 cells, p24 ELISA)
[2] = system: SK1 clinical isolate of HIV-1; experiment: CD4-dependent HIV transmission inhibition assay (H9/SK-1 to GHOST(3) X4/R5 cells, cell-associated p24)
HIV-1 RoJo = experiment: PBMC antiviral assay (RT activity); conditions: therapeutic index
Experimental: (§1) Human immunodeficiency virus type 1 (HIV-1) strain RoJo is a low passage pediatric isolate derived in the laboratories of Southern Research Institute (SRI). The SHIV89.6pd was obtained from Mark Lewis at SRI and stocks grown in human PBMCs for antiviral testing.
(§2) Peripheral blood monocular cells (PBMCs) were obtained from normal hepatitis and HIV-1 negative donors by ficoll hypaque gradient separation. Briefly, anti-coagulated blood was diluted 1:1 with Dulbecco's phosphate buffered saline without Ca^++ and Mg^++ (PBS) and layered over 14 mL of Lymphocyte separation media in a 50 ml centrifuge tube. Tubes were then centrifuged for 30 minutes at 600×g. Banded PBLs were gently aspirated from the resulting interface and subsequently washed 2× with PBS by low speed centrifugation. The mononuclear cells were counted, viability determined by Trypan Blue dye exclusion and resuspended in RPMI 1640 medium supplemented with 15% FBS (heat inactivated), 2 mM L-glutamine, 100 U/mL penicillin, 100 µg/mL streptomycin, and 10 µg/mL gentamycin with 2 µg/mL phytohemagluttin (PHA) at 1×10^6 cells/mL. The cells were cultured for 48 to 72 h at 37° C., 5% CO2. Following incubation, cells were collected by centrifugation, washed and resuspended in RPMI 1640 supplemented with 15% FBS (heat inactivated), 2 mM L-glutamine, 100 U/mL penicillin, 100 µg/mL streptomycin, and 10 µg/mL gentamycin with 20 U/mL recombinant IL-2 (R & D Systems, Minneapolis, Minn.). IL-2 was included in the culture medium to maintain the cell division initiated by the PHA mitogenic stimulation. The cells were cultured in IL-2 for 72 hours and then used for viral challenge.
(§3) Human peripheral blood mononuclear cells from a minimum of 2 donors, that have been blasted with PHA and IL-2, were counted, viability determined by Trypan Blue dye exclusion and mixed in equal ratios. Pooled donors were used to minimize the variability observed between individual donors which results from quantitative and qualitative differences in HIV infection and overall response to the PHA and IL-2 of primary lymphocyte populations. The cells were resuspended at 1×10^6 cells/mL in RPMI 1640 without phenol red supplemented with 15% Fetal Bovine Serum (heat inactivated), 2 mM L-glutamine, 100 U/mL penicillin, 100 μg/mL streptomycin, 10 μg/mL gentamycin and IL-2 (20 U/mL, R&D Systems, Minneapolis, Minn.). […] The assay was incubated for 6 days in a humidified atmosphere at 37° C., 5% CO2, after which supernatants were collected, for analysis of RT activity and sister plates analyzed for cell viability by MTS dye reduction. […]
(§4) Reverse transcriptase activity was measured in cell-free supernatants. […]

SHIV 89.6pd = experiment: PBMC antiviral assay (RT activity); conditions: therapeutic index
Experimental: as §1, §2, §3, §4

[3] = TC50/IC50, Exp. 2, without mucin
[4] = TC50/IC50, Exp. 1, without mucin

Compound	CD4-Independent Transmission Assay TI ([1]; TC50/IC50, Exp. 2, with mucin)	CD4-Independent Transmission Assay TI [1, 3]	CD4-Dependent Transmission Assay TI [2, 4]	CD4-Dependent Transmission Assay TI ([2]; TC50/IC50, Exp. 2, with mucin)	CD4-Dependent Transmission Assay TI [2, 3]	HIV-1 RoJo Infected PBMCs TI (HIV-1 RoJo)	SHIV 89.6pd Infected PBMCs TI (SHIV 89.6pd)
Dextran sulfate [reference compound]	>309	>46	>316	>316	>316	–	–
Cc1cn([C@H]2C[C@H](N=[N+]=[N-])[C@@H](CO)O2)c(=O)[nH]c1=O [AZT]	–	–	–	–	–	>200	>500
BHAlyslys2lys4lys8lys16[NH—CO—CH2)O-3,6-Naphthyl-(SO3Na)2]32 [SPL-7013]	>90.9	>3.5	>132	>205	>256	>16	>400
